Compound potency records, mixed from different reports. Data source: NIAID ChemDB in PubChem.

Common to all: whole-cell or culture tests; agent: HIV-1; endpoint: EC50

a–b is a range or a potency band. Conditions beyond the fields shown may differ between rows. ECn: concentration that inhibits the pathogen or its effect by n%. Blank or dashed fields: not listed here.

structure	strain or isolate	changes	read by	result
CC(C)CN(C[C@@H](O)[C@H](Cc1ccccc1)NC(=O)[C@H](CC(N)=O)NC(=O)c1ccc2ccccc2n1)C(=O)NC(C)(C)C	RF	-	-	0.077 µM
C=C(C)[C@]12C[C@@H](C)[C@@]34OC(/C=C/C=C/CCCCC)(O[C@@H]1[C@@H]3[C@@H]1O[C@]1(CO)[C@@H](O)[C@]1(O)C(=O)C(C)=C[C@H]14)O2	-	-	cytopathic effect	0.00564 µM
Cc1cn([C@H]2C[C@H](N=[N+]=[N-])[C@@H](CO)O2)c(=O)[nH]c1=O	IIIB	-	cytopathic effect / XTT	0.012 µM
CCN1c2ncc(CCc3ccc(OCP(=O)(O)O)cc3)cc2C(=O)N(C)c2cccnc21	-	Y181C	-	>5 µM
CCC[N+]1=CC(c2cc(C3C(=O)N(CC)c4ccc(C(F)(F)F)cc4N(c4ccccc4)C3=O)cc(OC)c2O)C=N1	NL4-3	-	luciferase	0.07 µM
CC(C)c1c(COC(N)=O)cn(Cc2ccncc2)c1Sc1ccccc1	-	RT-K103N	cytopathic effect / MTT	>100 µM
Cc1cn([C@@H]2O[C@H](CO[Si](C)(C)C(C)(C)C)C3(OS(=O)(=O)C=C3N)[C@H]2O[Si](C)(C)C(C)(C)C)c(=O)n(CCCCO)c1=O	-	-	-	0.03–0.76 µM
Cc1occc1C(=S)Nc1ccc(Cl)c(/C=N/OC(C)(C)C)c1	UC781-RS(RT-Y181C	RT-Y181C	-	0.9 µM
Nc1ccn([C@H]2CC[C@@H](CO)O2)c(=O)n1	HIVRTMC (RT D67N K70R T215F K219Q)	RT-D67N K70R T215F K219Q	plaque count	0.14 µM
Cc1cn([C@@H]2O[C@H](CO[Si](C)(C)C(C)(C)C)C3(OS(=O)(=O)C=C3N)[C@H]2O[Si](C)(C)C(C)(C)C)c(=O)n(CC(=O)OCc2ccccc2)c1=O	-	-	-	0.03–0.76 µM
Cc1cc(S(N)(=O)=O)ccc1NC(=O)COc1ccccc1C(=O)c1cc(Cl)cc(C#N)c1	BaL	-	-	<0.002 µM
c1ccc(CNCc2ccc(CN3CCCNCCNCCCNCC3)cc2)nc1	IIIB	-	-	0.01 µg/mL
Cc1ccnc2c1NC(=O)c1cccnc1N2C1CC1	IIIB	-	cytopathic effect / MTT	0.2 µM
Cc1cn([C@@H]2O[C@H](CO[Si](C)(C)C(C)(C)C)C3(OS(=O)(=O)C=C3N)[C@H]2O[Si](C)(C)C(C)(C)C)c(=O)n(CCCNC(=O)OCc2ccccc2)c1=O	-	-	-	0.03–0.76 µM
CO[P@](=O)(c1cc(C)cc(/C=C/C#N)c1)c1c(C(N)=O)[nH]c2ccc(Cl)cc12	BH10	K103N	-	<0.0016 µM
Cc1cn([C@H]2C[C@H](N=[N+]=[N-])[C@@H](CO)O2)c(=O)[nH]c1=O	IIIB	-	cytopathic effect / MTT	0.3 µM
Cc1ccnc2c1NC(=O)c1cccnc1N2C1CC1	-	-	RT activity / fluorescence	>67.5 µM
CC(C)(C)C(=O)SCCOP(=O)(CO[C@@H]1C=C[C@H](n2cnc3c(N)ncnc32)C12CC2)OCCSC(=O)C(C)(C)C	WILD TYPE	-	-	12.3 µM
CNC(=O)Cn1c(=O)c(C)cn([C@@H]2O[C@H](CO[Si](C)(C)C(C)(C)C)C3(OS(=O)(=O)C=C3N)[C@H]2O[Si](C)(C)C(C)(C)C)c1=O	-	-	-	0.03–0.76 µM
O=C(OC1OC2COC(=O)c3cc(Oc4c(C(=O)OC5C(O)OC6COC(=O)c7cc(O)c(O)c(O)c7-c7c(cc(O)c(O)c7O)C(=O)OC6C5OC(=O)c5cc(O)c(O)c(O)c5)cc(O)c(O)c4O)c(O)c(O)c3-c3c(cc(O)c(O)c3O)C(=O)OC2C(OC(=O)c2cc(O)c(O)c(O)c2)C1O)c1cc(O)c(O)c(O)c1	-	-	-	1–10 µg/mL
Cc1cn([C@H]2C[C@H](N=[N+]=[N-])[C@@H](COP(=O)(O)OCCOc3ccc4ccccc4c3)O2)c(=O)[nH]c1=O	-	-	p24	1–10 µM
NC1=CS(=O)(=O)OC12C1CC3CC(C1)CC2C3	-	-	-	>200 µg/mL
CC(C)c1c(CO)cn(Cc2ccncc2)c1Sc1ccccc1	-	RT-K103N	cytopathic effect / MTT	<9.6 µM
Cc1nc2ccccc2c(-c2ccc3c(c2Cl)NCCO3)c1[C@H](OC(C)(C)C)C(=O)O	-	-	luciferase	8.4 µM
CCc1cc(-c2ccc(C(F)(F)F)o2)n(-c2ccc3c(c2)nc(-c2ccccc2O)n3CC2=CCC(=O)N=C2)n1	NL4-3	-	luciferase	0.11 µM
Cc1cn([C@H]2C=C[C@H](CO)O2)c(=O)[nH]c1=O	-	-	-	>1000 µM
CC(C)=CCOc1cc(NC(=S)c2ccoc2C)ccc1Cl	-	-	-	0.01 µM
Cc1cn([C@@H]2O[C@H](CO[Si](C)(C)C(C)(C)C)[C@@]3(OS(=O)(=O)C=C3N)[C@H]2O[Si](C)(C)C(C)(C)C)c(=O)n(/C=C\CO)c1=O	-	-	-	0.03–0.76 µM
CC(C)Nc1cccnc1N1CCN(C(=O)c2cc3cc(NS(C)(=O)=O)ccc3[nH]2)CC1	-	-	-	0.005 µM
CC(C)=CCN1Cc2cccc3[nH]c(=O)n(c23)CC1C	UC781-RS(RT-Y181C	RT-Y181C	-	11.8 µM
CN1N=C(N)c2cn([C@@H]3O[C@H](COP(=O)(O)O)[C@@H](O)[C@H]3O)c3ncnc1c23	IIIB	-	syncytia	0.01 µM
Cc1cn([C@H]2CC[C@H](CO)O2)c(=O)[nH]c1=O	-	-	-	>1000 µM
CCCc1cc(=O)oc2c3c(c4c(c12)OC(C)(C)C=C4)O[C@@H](C)[C@H](C)[C@@H]3O	-	-	-	0.5 µM
COP(=S)(OC[C@@H]1CC[C@H](n2cnc3c(N)ncnc32)O1)C(=O)O	-	-	p24	1–10 µM
Cc1cn([C@@H]2O[C@H](CO[Si](C)(C)C(C)(C)C)C3(OS(=O)(=O)C=C3N)[C@H]2O[Si](C)(C)C(C)(C)C)c(=O)n(Cc2ccccc2)c1=O	-	-	-	0.03–0.76 µM
CN1C(=O)C(c2ccc(O)cc2)C(=O)N(c2ccccc2)c2cc(C(F)(F)F)ccc21	NL4-3	-	luciferase	1.1 µM
C=C(C)[C@]12C[C@@H](C)[C@@]34OC(CCCCCCCCCCCCCCC)(O[C@@H]1[C@@H]3[C@@H]1O[C@]1(CO)[C@@H](O)[C@]1(O)C(=O)C(C)=C[C@H]14)O2	-	-	cytopathic effect	0.00052 µM
O=C(O)P(=O)(O)O	IIIB	-	cytopathic effect / MTT	95.1 µM
CC(C)=CCOc1cc(NC(=S)c2ccsc2C)ccc1Cl	-	-	-	0.005 µM
Cc1cn([C@H]2C[C@H](N=[N+]=[N-])[C@@H](CO)O2)c(=O)[nH]c1=O	CC1 Clinical isolates	-	p24	0.13 µM

The first 5 rows once more:

structure,strain or isolate,changes,read by,result
CC(C)CN(C[C@@H](O)[C@H](Cc1ccccc1)NC(=O)[C@H](CC(N)=O)NC(=O)c1ccc2ccccc2n1)C(=O)NC(C)(C)C,RF,-,-,0.077 µM
C=C(C)[C@]12C[C@@H](C)[C@@]34OC(/C=C/C=C/CCCCC)(O[C@@H]1[C@@H]3[C@@H]1O[C@]1(CO)[C@@H](O)[C@]1(O)C(=O)C(C)=C[C@H]14)O2,-,-,cytopathic effect,0.00564 µM
Cc1cn([C@H]2C[C@H](N=[N+]=[N-])[C@@H](CO)O2)c(=O)[nH]c1=O,IIIB,-,cytopathic effect / XTT,0.012 µM
CCN1c2ncc(CCc3ccc(OCP(=O)(O)O)cc3)cc2C(=O)N(C)c2cccnc21,-,Y181C,-,>5 µM
CCC[N+]1=CC(c2cc(C3C(=O)N(CC)c4ccc(C(F)(F)F)cc4N(c4ccccc4)C3=O)cc(OC)c2O)C=N1,NL4-3,-,luciferase,0.07 µM